Laboratory results reported in the NIST ThermoML archive (doi:10.1016/j.jct.2018.07.024).
± gives the expanded uncertainty stated by the source.

Assay: activity coefficient (dimensionless); xn = mol fraction of the nth substance listed
Details: 101.33 kPa, Liquid, Chromatography, x1 = 0

`C1CCOC1` [tetrahydrofuran] + CCCCCCCC[N+](CC)(CC)CC.O=S(=O)(F)[N-]S(=O)(=O)F showed an activity coefficient (318.15 K) of 0.599 ± 0.042, an activity coefficient (328.15 K) of 0.637 ± 0.044 and an activity coefficient (338.15 K) of 0.674 ± 0.046. The activity coefficient (348.15 K) was 0.712 ± 0.047, the activity coefficient (358.15 K) was 0.75 ± 0.049 and the activity coefficient (368.15 K) was 0.787 ± 0.051.

For `C1CCOC1` [tetrahydrofuran] + CCCC[N+]1(C)CCCC1.O=S(=O)(F)[N-]S(=O)(=O)F, the activity coefficient (318.15 K) was 0.92 ± 0.058, the activity coefficient (328.15 K) was 0.981 ± 0.062 and the activity coefficient (338.15 K) was 1.04 ± 0.07. It also gave an activity coefficient (348.15 K) of 1.11 ± 0.07, an activity coefficient (358.15 K) of 1.17 ± 0.07 and an activity coefficient (368.15 K) of 1.24 ± 0.08.

Compound `c1ccsc1` [thiophene] + CCCCCCCC[N+](CC)(CC)CC.O=S(=O)(F)[N-]S(=O)(=O)F has an activity coefficient (318.15 K) of 0.545 ± 0.04, an activity coefficient (328.15 K) of 0.583 ± 0.041 and an activity coefficient (338.15 K) of 0.623 ± 0.043. The activity coefficient (348.15 K) was 0.661 ± 0.045, the activity coefficient (358.15 K) was 0.701 ± 0.047 and the activity coefficient (368.15 K) was 0.741 ± 0.049.

`c1ccsc1` [thiophene] + CCCC[N+]1(C)CCCC1.O=S(=O)(F)[N-]S(=O)(=O)F gave an activity coefficient (318.15 K) of 0.844 ± 0.054, an activity coefficient (328.15 K) of 0.9 ± 0.057 and an activity coefficient (338.15 K) of 0.958 ± 0.06. For the same compound, the activity coefficient (348.15 K) was 1.02 ± 0.06, the activity coefficient (358.15 K) was 1.08 ± 0.07 and the activity coefficient (368.15 K) was 1.13 ± 0.07.

With `Cc1ccccc1` [toluene] + CCCCCCCC[N+](CC)(CC)CC.O=S(=O)(F)[N-]S(=O)(=O)F the activity coefficient (318.15 K) was 0.832 ± 0.054, the activity coefficient (328.15 K) was 0.89 ± 0.06 and the activity coefficient (338.15 K) was 0.951 ± 0.06. It also gave an activity coefficient (348.15 K) of 1.01 ± 0.06, an activity coefficient (358.15 K) of 1.07 ± 0.07 and an activity coefficient (368.15 K) of 1.13 ± 0.07.

In the case of `Cc1ccccc1` [toluene] + CCCC[N+]1(C)CCCC1.O=S(=O)(F)[N-]S(=O)(=O)F, the activity coefficient (318.15 K) is reported as 1.49 ± 0.1, the activity coefficient (328.15 K) is reported as 1.59 ± 0.11 and the activity coefficient (338.15 K) is reported as 1.68 ± 0.11. It also gave an activity coefficient (348.15 K) of 1.78 ± 0.12, an activity coefficient (358.15 K) of 1.88 ± 0.13 and an activity coefficient (368.15 K) of 1.97 ± 0.13.

Compound `C=COC(C)=O` [vinyl acetate] + CCCCCCCC[N+](CC)(CC)CC.O=S(=O)(F)[N-]S(=O)(=O)F has an activity coefficient (318.15 K) of 0.953 ± 0.06, an activity coefficient (328.15 K) of 0.998 ± 0.062 and an activity coefficient (338.15 K) of 1.05 ± 0.07. For the same compound, the activity coefficient (348.15 K) was 1.09 ± 0.07, the activity coefficient (358.15 K) was 1.13 ± 0.07 and the activity coefficient (368.15 K) was 1.18 ± 0.08.

For `C=COC(C)=O` [vinyl acetate] + CCCC[N+]1(C)CCCC1.O=S(=O)(F)[N-]S(=O)(=O)F, the activity coefficient (318.15 K) was 1.29 ± 0.08, the activity coefficient (328.15 K) was 1.36 ± 0.09 and the activity coefficient (338.15 K) was 1.43 ± 0.09. It also gave an activity coefficient (348.15 K) of 1.5 ± 0.1, an activity coefficient (358.15 K) of 1.57 ± 0.1 and an activity coefficient (368.15 K) of 1.64 ± 0.11.

In the case of `O` [water] + CCCCCCCC[N+](CC)(CC)CC.O=S(=O)(F)[N-]S(=O)(=O)F, the activity coefficient (318.15 K) is reported as 4.94 ± 0.34, the activity coefficient (328.15 K) is reported as 4.46 ± 0.3 and the activity coefficient (338.15 K) is reported as 4.05 ± 0.28. It also gave an activity coefficient (348.15 K) of 3.69 ± 0.25, an activity coefficient (358.15 K) of 3.39 ± 0.23 and an activity coefficient (368.15 K) of 3.12 ± 0.21.

Compound `O` [water] + CCCC[N+]1(C)CCCC1.O=S(=O)(F)[N-]S(=O)(=O)F has an activity coefficient (318.15 K) of 3.84 ± 0.26, an activity coefficient (328.15 K) of 3.51 ± 0.24 and an activity coefficient (338.15 K) of 3.23 ± 0.22. The activity coefficient (348.15 K) was 2.99 ± 0.2, the activity coefficient (358.15 K) was 2.78 ± 0.19 and the activity coefficient (368.15 K) was 2.59 ± 0.18.
